From PMC8411975, “Frag4Lead: growing crystallographic fragment hits by catalog using fragment-guided template docking” (Acta Crystallographica. Section D, Structural Biology, 2021)

Sequences of proteins named here, by UniProt entry; tags and fusion partners are left off. Residues count along the entry.
UniProt P11838, 90-419 limits assumed: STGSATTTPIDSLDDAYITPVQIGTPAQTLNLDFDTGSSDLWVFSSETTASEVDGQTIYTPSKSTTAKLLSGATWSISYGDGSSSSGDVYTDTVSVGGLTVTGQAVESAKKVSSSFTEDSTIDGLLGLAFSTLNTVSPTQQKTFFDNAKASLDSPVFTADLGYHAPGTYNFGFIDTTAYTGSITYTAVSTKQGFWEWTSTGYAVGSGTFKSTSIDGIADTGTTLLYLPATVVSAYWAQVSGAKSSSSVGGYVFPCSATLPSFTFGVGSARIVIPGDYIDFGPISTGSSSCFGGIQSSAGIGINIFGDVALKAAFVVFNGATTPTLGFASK

Target: endothiapepsin (EP) (Cryphonectria parasitica, UniProt P11838)
Experiment: Isothermal titration calorimetry (direct or SAP114-displacement titration) against EP
Assay type: binding
Details: from ITC Kd; tested form: HCl

Compound: NC1=NC(=NNc2ccccc2)c2ccccc21
- LE (ligand efficiency): 0.39 kcal mol^−1 per atom
